Results deposited as PubChem BioAssay AID624099 (ICCB-Longwood, 2012).
Aim: 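Knock-downs relieving repression by E2 of an HPV18 LCR luciferase reporter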 (primary screen). Cell system: human C33A cervical carcinoma cells (HPV-negative) stably expressing BPV1 E2 and an HPV18 LCR luciferase reporter. Reagent: siRNA pool against human genes, 40 nM. Duration: 72 h. Detection: 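HPV18 LCR reporter light per well, converted to plate-wise z-scores that exclude control wells, and averaged over triplicate plates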. Reading the numbers: mean z-score and z-score: higher = stronger reporter signal, weaker E2 silencing. Active means: 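Hit if mean z-score reaches 2 and two or more of three replicate z-scores also reach 2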.
In all, the deposit lists about 21,000 reagents; shown is a random part of them. In the full data, 497 (2.4%) were called active. 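Higher z means weaker E2 silencing; only reporter increases were scored, and knock-downs that hurt cell survival may mask genuine repressor factors.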 Unmarked entries are inactive. Reagent sequences are not shown.

SLC25A26 → mean z-score = 2.03 (active); z-score, replicate A = 2.1; z-score, replicate B = 2.19; z-score, replicate C = 1.79
A1BG (alpha-1-B glycoprotein) → mean z-score = -1.08; z-score, replicate A = -1.23; z-score, replicate B = -1.12; z-score, replicate C = -0.88
L3MBTL2 (L3MBTL histone methyl-lysine binding protein 2) → mean z-score = 1.61; z-score, replicate A = 1.44; z-score, replicate B = 2.01; z-score, replicate C = 1.36
DTL (denticleless E3 ubiquitin protein ligase adapter) → mean z-score = 0.22; z-score, replicate A = 0.43; z-score, replicate B = 0.1; z-score, replicate C = 0.13
DNAJC5B (DnaJ heat shock protein family (Hsp40) member C5 beta) → mean z-score = 0.15; z-score, replicate A = 0.19; z-score, replicate B = -0.03; z-score, replicate C = 0.28
NLRP8 (NLR family pyrin domain containing 8) → mean z-score = -0.69; z-score, replicate A = -0.69; z-score, replicate B = -0.62; z-score, replicate C = -0.74
DUSP6 (dual specificity phosphatase 6) → mean z-score = 2.46 (active); z-score, replicate A = 3.17; z-score, replicate B = 2.08; z-score, replicate C = 2.12
PCDHB3 (protocadherin beta 3) → mean z-score = -0.47; z-score, replicate A = -0.25; z-score, replicate B = -0.4; z-score, replicate C = -0.75
BNIP2 (BCL2 interacting protein 2) → mean z-score = -0.98; z-score, replicate A = -1.03; z-score, replicate B = -1.14; z-score, replicate C = -0.76
GINS3 (GINS complex subunit 3) → mean z-score = -1.01; z-score, replicate A = -0.91; z-score, replicate B = -1.36; z-score, replicate C = -0.77
CD247 (CD247 molecule) → mean z-score = -0.06; z-score, replicate A = 0.09; z-score, replicate B = 0; z-score, replicate C = -0.28
TAF1D → mean z-score = -0.62; z-score, replicate A = -0.26; z-score, replicate B = -0.71; z-score, replicate C = -0.89
ADGRF4 (adhesion G protein-coupled receptor F4) → mean z-score = -0.16; z-score, replicate A = -0.41; z-score, replicate B = -0.2; z-score, replicate C = 0.15
CELA3A (chymotrypsin like elastase 3A) → mean z-score = 1.44; z-score, replicate A = 1.28; z-score, replicate B = 1.45; z-score, replicate C = 1.58
